Measured values from several laboratories, pooled; numbers as filed in NIAID ChemDB.

All rows: tests in culture; agent: HIV-1

Lines come from different laboratories, so protocols vary. a–b is a range or a potency band. Blank or dashed fields: not listed here. ECn: concentration that inhibits the pathogen or its effect by n%.

CCCc1cc(=O)oc2c3c(c4c(c12)OC(C)(C)C=C4)O[C@H](C)[C@@H](C)[C@@H]3OC ; strain or isolate: RF ; cells: CEM + CEM-SS ; measure: EC50 ; read by: XTT ; value: >10 µM
Cc1ccc(O)c(C)c1C(=O)N[C@@H](Cc1ccccc1)[C@H](O)C(=O)N1C[C@@H](Cl)C[C@H]1C(=O)NC(C)(C)C ; strain or isolate: IIIB ; cells: CEM ; measure: EC90 ; value: 0.105 µM
Cc1cn([C@H]2C[C@H](N=[N+]=[N-])[C@@H](CO)O2)c(=O)[nH]c1=O ; cells: C8166 ; measure: EC50 ; read by: p24 / syncytia ; value: 0.016 µM
Cc1c(N)cccc1C(=O)N[C@@H](Cc1ccccc1)[C@H](O)C(=O)N1C[C@@H](Cl)C[C@H]1C(=O)NC(C)(C)C ; strain or isolate: IIIB ; cells: CEM ; measure: EC50 ; value: >0.5 µM
Cc1cc(/C=C/C#N)cc(C)c1Oc1nc(Nc2ccc(CN3CCN(S(N)(=O)=O)CC3)cc2)nc2ccsc12 ; strain or isolate: IIIB ; cells: MT-4 ; measure: EC50 ; changes: K103N ; read by: MTT ; value: 0.007 µM
COC(=O)N[C@H](C(=O)N[C@@H](Cc1ccccc1)[C@@H](O)CN(Cc1ccc(-c2ccccn2)cc1)NC(=O)[C@@H](NC(=O)OC)C(C)(C)C)C(C)(C)C ; strain or isolate: NL4-3 WT 43XCS ; cells: HeLa ; measure: EC50 ; read by: β-galactosidase ; value: 0.0022 µM
O=S(=O)(NCCc1ccccc1)Nc1ccc(Cl)cn1 ; strain or isolate: IIIB ; cells: MT-4 ; measure: EC50 ; read by: cytopathic effect / XTT ; value: >100 µM
Cn1ncc2c1S(=O)(=O)N(CCc1ccccc1Br)C(=O)N2CCc1ccccc1Br ; strain or isolate: IIIB ; cells: MT-4 ; measure: EC50 ; read by: MTT ; value: >231.5 µM
COc1ccc2c(c1)N(C(=O)OC(C)C)[C@@H](CSC)C(=S)N2 ; strain or isolate: IIIB ; cells: CEM ; measure: EC50 ; changes: RT-M184V ; read by: p24 ; value: 0.003 µg/mL
C=C(C)C1Cc2cc(C(C)=O)c(O)cc2O1 ; cells: C8166 ; measure: EC50 ; read by: p24 / syncytia ; value: 16 µg/mL
Cc1ccnc2c1NC(=O)c1cccnc1N2C1CC1 ; strain or isolate: IIIB ; cells: CEM ; measure: EC50 ; changes: RT-V106A ; read by: p24 ; value: 2.3 µg/mL
CC(C)(c1ncc(-c2ccc(Cl)cc2)o1)N1CCN(C[C@@H](O)C[C@@H](Cc2cc3ccncc3o2)C(=O)N[C@H]2c3ccccc3OC[C@H]2O)[C@H](C(=O)NCC(F)(F)F)C1 ; strain or isolate: NL4-3 ; cells: MT-4 ; measure: EC95 ; read by: p24 ; value: 0.0078 µM
Cc1cn([C@H]2C[C@H](N=[N+]=[N-])[C@@H](CO)O2)c(=O)[nH]c1=O ; strain or isolate: N119 ; cells: TZM-bl ; measure: EC50 ; read by: luciferase ; value: 0.02 µM
c1cc(CN2CCCNCCNCCCNCC2)ccc1CN1CCCNCCNCCCNCC1 ; strain or isolate: LAI ; cells: MAGI ; measure: EC50 ; read by: β-galactosidase ; value: 0.011 µM
Cc1ccncc1-c1ccc(C[C@H](C[C@H](O)CN2CCN(Cc3ccc(-c4ccc(Cl)cc4)o3)C[C@H]2C(=O)NCC(F)(F)F)C(=O)N[C@H]2c3ccccc3OC[C@H]2O)o1 ; strain or isolate: 4X (PR M46I L63P V82T I84V) ; cells: MT-4 ; measure: EC95 ; changes: PR-M46I L63P V82T I84V ; read by: p24 ; value: 0.0313 µM
CCc1cc(NCc2nc3c(Cl)ccc(Cl)c3o2)c(=O)[nH]c1C ; strain or isolate: IIIB ; cells: MT-4 ; measure: EC50 ; value: <0.05 µM
CC(C)(C)NC(=O)[C@@H]1C[C@@H]2CCCC[C@@H]2CN1C[C@@H](O)[C@H](Cc1ccccc1)NC(=O)[C@H](CC(N)=O)NC(=O)c1ccc2ccccc2n1 ; strain or isolate: NL4-3 ; cells: MT-4 ; measure: EC95 ; changes: PR-V82T ; read by: p24 ; value: 0.025 µM
O=C1Nc2ccc(Cl)cc2C(C#Cc2nccs2)(C2CC2)N1 ; strain or isolate: IIIB ; cells: MT-4 ; measure: EC95 ; value: 0.012 µM
CC1c2nnc(-c3ccccc3)n2-c2ccc(C(F)(F)F)cc2-n2c(-c3ccccc3)nnc21 ; strain or isolate: IIIB ; cells: MT-4 ; measure: EC50 ; read by: cytopathic effect / MTT ; value: >137 µM
Nc1ccn([C@H]2CC[C@@H](COP(=O)(OCC(Cl)(Cl)Cl)OCC(Cl)(Cl)Cl)O2)c(=O)n1 ; strain or isolate: RF ; cells: C8166 ; measure: EC50 ; read by: antigen ; value: 7 µM
O=C1N(Cc2ccc(CO)cc2)[C@H](Cc2ccccc2)[C@H](O)[C@@H](O)[C@@H](Cc2ccccc2)N1Cc1ccc(CO)cc1 ; strain or isolate: NL4-3 ; cells: MT-4 ; measure: EC50 ; changes: PR-M46I V82T I84V ; read by: p24 ; value: <1.5 µM
CC1c2nnc(-c3ccc(Cl)cc3)n2-c2ccccc2-n2c(-c3ccc(Cl)cc3)nnc21 ; strain or isolate: IIIB ; cells: MT-4 ; measure: EC50 ; read by: cytopathic effect / MTT ; value: >12 µM
O=C1Nc2ccc(Cl)cc2C(C#Cc2ccccc2)(C2CC2)N1 ; strain or isolate: IIIB ; cells: MT-4 ; measure: EC50 ; value: <0.1 µM
c1ccc2c(c1)-n1cnnc1Cc1nncn1-2 ; strain or isolate: IIIB ; cells: MT-4 ; measure: EC50 ; read by: cytopathic effect / MTT ; value: >200 µM
CCSCCCCCCCCCCCC(=O)O ; strain or isolate: IIIB ; cells: CEM + CEM-SS ; measure: EC50 ; read by: cytopathic effect / XTT ; value: 9.37 ± 7.1 µM
O=c1cc(-c2ccc(O)c(O)c2)oc2cc(O[C@@H]3O[C@H](CO)[C@@H](O)[C@H](O)[C@H]3OS(=O)(=O)O)cc(O)c12 ; cells: MT-2 ; measure: EC50 ; read by: p24 ; value: 27 µM
C=C(C)C1Oc2ccc(C(C)=O)cc2C1O ; cells: C8166 ; measure: EC50 ; read by: p24 / syncytia ; value: >50 µg/mL
N#CCN1C(=O)N(Cc2ccccc2)S(=O)(=O)c2cscc21 ; strain or isolate: IIIB ; cells: MT-4 ; measure: EC50 ; read by: MTT ; value: 0.9 µM
Cc1cn([C@H]2C[C@H](N=[N+]=[N-])[C@@H](CO)O2)c(=O)[nH]c1=O ; strain or isolate: A018 ; cells: MT-4 ; measure: EC50 ; read by: cytopathic effect / trypan blue ; value: 0.14 µM
Cc1cn([C@@H]2O[C@H](CO[Si](C)(C)C(C)(C)C)C3(OS(=O)(=O)C=C3N)[C@H]2O[Si](C)(C)C(C)(C)C)c(=O)n(C)c1=O ; strain or isolate: IIIB ; cells: CEM ; measure: EC50 ; changes: RT-V106A ; read by: p24 ; value: 2.2 µg/mL
O=C(O)CCCCCCCCCCCI ; strain or isolate: IIIB ; cells: CEM + CEM-SS ; measure: EC50 ; read by: cytopathic effect / XTT ; value: 30 ± 8.9 µM
CC(C)(c1ncc(-c2ccc(Cl)cc2)o1)N1CCN(C[C@@H](O)C[C@@H](Cc2cc3cnccc3s2)C(=O)N[C@H]2c3ccccc3OC[C@H]2O)[C@H](C(=O)NCC(F)(F)F)C1 ; strain or isolate: NL4-3 ; cells: MT-4 ; measure: EC95 ; read by: p24 ; value: <0.0078 µM
Cc1occc1C(=S)Nc1ccc(Cl)c(/C=N/OC(C)(C)C)c1 ; strain or isolate: IIIB ; cells: CEM ; measure: EC50 ; changes: RT-M184I ; read by: p24 ; value: 0.009 µg/mL
Cc1cn([C@H]2C[C@H](N=[N+]=[N-])[C@@H](COP(=O)(OCC(Cl)(Cl)Cl)OCC(Cl)(Cl)Cl)O2)c(=O)[nH]c1=O ; strain or isolate: RF ; cells: C8166 ; measure: EC50 ; read by: antigen ; value: 0.7 µM
O=C1N(Cc2ccccc2Cl)c2cscc2S(=O)(=O)N1Cc1ccccc1 ; strain or isolate: IIIB ; cells: MT-4 ; measure: EC50 ; read by: MTT ; value: 0.1 µM
O=C(O)C(O)c1ccccc1 ; strain or isolate: JR-FL ; cells: HELA-TAT + TZM ; measure: EC50 ; read by: luciferase ; value: <5 µg/mL
CCc1cc(CCc2nc3ccccc3o2)c(=O)[nH]c1C ; cells: MT-4 ; measure: EC95 ; read by: p24 ; value: 0.1 µM
ClC1(Cl)c2nnc(-c3ccccc3)n2-c2ccccc2-n2c(-c3ccccc3)nnc21 ; strain or isolate: IIIB ; cells: MT-4 ; measure: EC50 ; read by: cytopathic effect / MTT ; value: >30 µM
Cc1c(O)cccc1C(=O)N[C@@H](Cc1ccccc1)[C@H](O)C(=O)N1C[C@@H](Cl)C[C@H]1C(=O)NC(C)(C)C ; strain or isolate: IIIB ; cells: CEM ; measure: EC90 ; value: 0.11 µM
Cc1cn([C@H]2C[C@H](N=[N+]=[N-])[C@@H](CO)O2)c(=O)[nH]c1=O ; strain or isolate: IIIB ; cells: MT-4 ; measure: EC50 ; read by: cytopathic effect / MTT ; value: 0.0014 µg/mL
Cc1ccncc1-c1ccc(C[C@H](C[C@H](O)CN2CCN(Cc3ccc(-c4ccc(Cl)cc4)s3)C[C@H]2C(=O)NCC(F)(F)F)C(=O)N[C@H]2c3ccccc3OC[C@H]2O)o1 ; strain or isolate: 4X (PR M46I L63P V82T I84V) ; cells: MT-4 ; measure: EC50 ; changes: PR-M46I L63P V82T I84V ; read by: p24 ; value: <0.0156 µM
C=C(C)OC(=O)N1c2cc(Cl)ccc2NC(=S)C1(C)C ; strain or isolate: IIIB ; cells: CEM ; measure: EC50 ; read by: syncytia ; value: 0.013 µM
CCc1c(O)cccc1C(=O)N[C@@H](Cc1ccccc1)[C@H](O)C(=O)N1C[C@@H](Cl)C[C@H]1C(=O)NC(C)(C)C ; strain or isolate: IIIB ; cells: CEM ; measure: EC90 ; value: 0.12 µM
Cn1ncc2c1S(=O)(=O)N(CCc1ccccc1)C(=O)N2CCc1ccc(Cl)cc1Cl ; strain or isolate: IIIB ; cells: MT-4 ; measure: EC50 ; read by: MTT ; value: >277.2 µM
Oc1ccccc1CN(CCN1CCCCC1)CC1CCCN(C2CCCC2)C1 ; strain or isolate: LAI ; cells: MAGI ; measure: EC50 ; read by: β-galactosidase ; value: 7.3 µM
O=C(Nc1cc(S(=O)(=O)O)cc2cc(S(=O)(=O)O)c(N=Nc3ccc(N=Nc4c(S(=O)(=O)O)cc5cc(S(=O)(=O)O)cc(NC(=O)c6cccc(Cl)c6Cl)c5c4O)cc3)c(O)c12)c1ccc(Cl)cc1Cl ; strain or isolate: RF ; cells: MT-2 ; measure: EC50 ; value: 0.2–0.28 µg/mL
CNc1ccc(Cl)cc1S(=O)(=O)c1ccccc1[N+](=O)[O-] ; strain or isolate: IIIB ; cells: MT-2 ; measure: EC50 ; read by: XTT ; value: 1.1 µM
NC(=O)NO ; strain or isolate: NL4-3 ; cells: PBMC ; measure: EC50 ; read by: p24 ; value: ~100 µM
O=c1[nH]cnc2c1ncn2[C@H]1CC[C@@H](CO)O1 ; strain or isolate: LAI ; cells: MT-2 ; measure: EC50 ; read by: RT activity ; value: 0.35 µM
O=C(N[C@H]1c2ccccc2OC[C@H]1O)[C@H](Cc1cc2cnccc2s1)C[C@H](O)CN1CCN(Cc2csc(-c3ccc(C(F)(F)F)cc3)n2)C[C@H]1C(=O)NCC(F)(F)F ; strain or isolate: 4X (PR M46I L63P V82T I84V) ; cells: MT-4 ; measure: EC50 ; changes: PR-M46I L63P V82T I84V ; read by: p24 ; value: <0.125 µM

The first 6 rows once more:

smiles	strain or isolate	cells	measure	changes	read by	value
CCCc1cc(=O)oc2c3c(c4c(c12)OC(C)(C)C=C4)O[C@H](C)[C@@H](C)[C@@H]3OC	RF	CEM + CEM-SS	EC50	-	XTT	>10 µM
Cc1ccc(O)c(C)c1C(=O)N[C@@H](Cc1ccccc1)[C@H](O)C(=O)N1C[C@@H](Cl)C[C@H]1C(=O)NC(C)(C)C	IIIB	CEM	EC90	-	-	0.105 µM
Cc1cn([C@H]2C[C@H](N=[N+]=[N-])[C@@H](CO)O2)c(=O)[nH]c1=O	-	C8166	EC50	-	p24 / syncytia	0.016 µM
Cc1c(N)cccc1C(=O)N[C@@H](Cc1ccccc1)[C@H](O)C(=O)N1C[C@@H](Cl)C[C@H]1C(=O)NC(C)(C)C	IIIB	CEM	EC50	-	-	>0.5 µM
Cc1cc(/C=C/C#N)cc(C)c1Oc1nc(Nc2ccc(CN3CCN(S(N)(=O)=O)CC3)cc2)nc2ccsc12	IIIB	MT-4	EC50	K103N	MTT	0.007 µM
COC(=O)N[C@H](C(=O)N[C@@H](Cc1ccccc1)[C@@H](O)CN(Cc1ccc(-c2ccccn2)cc1)NC(=O)[C@@H](NC(=O)OC)C(C)(C)C)C(C)(C)C	NL4-3 WT 43XCS	HeLa	EC50	-	β-galactosidase	0.0022 µM